Measured values: patent publication US20210054055A1 (UNIVERSITY OF VERMONT AND STATE AGRICULTURAL COLLEGE, published 2021)

B1: Anti-ZIKV clone DT168(A)-D1_G-9E (G9E) (antibody, V domains shown)
VH: EVQLVESGGGVVQPGRSLRLSCVASGFAFSNYHMHWVRQAPGKGLEWVAIIWDDGSDQYYADSVKGRFTISRDNSKNTLFLQMNRLRAEDTALYYCVGGSSAYNGDNGWREAASLDDWGQGTLVTVSS
VL: QSALTQPASVSGSPGQSITIFCSGSSNDVGGYNYVSWYQQYPGKVPKLLIYDVNSRPSGVSNRFSGSKSGNTASLTISGLQAEDEADYYCSSYTSRRTWVFGGGTIVTVL
notes: also called ZV2; G9E mAb
B2: Anti-ZIKV clone DT168(A)-D1_A-9E (A9E) (antibody, V domains shown)
VH: EVQLLESGGGLVQAGGSLRLSCAASGFTFDTYAMSWVRQPPGKGLEWVSAISTGGGSKYYADSVKGRLTISRDNSQNTLYLQMSSLRADDTAVYYCARSDFWRSGRYYYYMDVWGRGTTVTVSS
VL: QSALTQPASVSASPGQSITISCTGTHFDIVDYDYLSWYQQHPGNAPKLLIYGVSNRPSGVSSRFSGSKSGNTASLTISGLQAEDEGDYYCSSYSISSTLLVFGGGTKLSV
notes: also called ZV1; A9E mAb

Molecular target: PRV (Zika virus)
Assay: cell-based or functional assay

Binder | FRNT50 (focus reduction neutralization on Vero cells) [ng/mL]
B1 | 10.3
B2 | 35.8
